Results taken from the supplement of paper PMC9931576.
Human monoclonal antibodies against the spike receptor-binding domain (heavy:light variable regions). IC50 against pseudoviruses bearing the spike of naturally observed variants; lower = stronger; >10 µg/ml means not reached at the top dose. No active / inactive call. The stated detection limit is 0.0005 µg/ml; values near or below 0.001 µg/ml lie at the floor of the assay.

B1: BD-827 (protein)
chain 1: QVRLQESGPGLVKPSGTLSLTCAVSGGSVSSTNWWSWVRQPPGKGLEWIGDIHHGGNTNYSPSLKSRVTISVDRSKNQFSLELNSVTAADTAIYYCAREGLVARGNYFDYWGPGIMVTVS
chain 2: SYVLTQPPSVSVAPGKTATITCGGTNGGSKTVHWYQQKPGQAPVLVIYFDSDRPSGIPERFSGSNSGNTATLTISWVEAGDEADYYCQVWDSFSAHPDFGGGTKLTVL
B2: BD55-587 (protein)
chain 1: QITLKESGPTLVKPTQTLTLTCTFSGFSLNTSGVGVGWIRQPPGKALEWLALIYWDDDKRYSPSLKSRLTITKDTSKNQVVLTMTNMDPVDTATYYCARTYGSPPLIAAAEYWFDPWGQGTLVTVSS
chain 2: SYELTQPPSVSVSPGQTARITCSGDALPKQYAYWYQQKPGQAPVLVIYKDSERPSGIPERFSGSSSGTTVTLTISGVQAEDEADYYCQSGDSSGVVFGGGTKLTVL
B3: BD-828 (protein)
chain 1: EVQLVESGGGLVQPGGSLRLSCSASGFIFSSYDMHWVRQAPGKGLEYVSGISSDGDITYYADSVKGRFTMSRDNSKKMLYLQMSSLRADDTAVYYCVKDSPSMIVVVLDYWGQGTLVTVSS
chain 2: DIQMTQSPSSLSASVGDRVTITCQTSQIIAGYLNWFQQKPGKAPKLLIYAASNLQTGVPSRFSGNGSGTDFTLTISSLQPEDFATYYCQQSYSTPPTFGQGTNVEIK
B4: BD-900 (protein)
chain 1: QVQLVQPGAEVKKPGSSVKVSCKASGGTFSNYAIAWVRQAPGQGLEWMGRIIPMFGTTSPAQNFKDRLTIGADTSTNTAYMELRSLRFEDTAIYYCARDVVGATNIDFWGQGTLVTVSS
chain 2: DVVMTQSPLSLPVTLGQPASISCRSNHSLVYSDGNTYLNWFQQRPGQSPRRLIYKVSNRDSGVPDRFSGSGSVTDFTLKISRVETEDLAIYFCMQGTHWPRTFGQGTRVEVK
B5: BD-904 (protein)
chain 1: QVQLVESGGGVVQPGTSLRLSCVASRFTFSNYGMHWVRQAPGKGLEWVAVIWYDGNNYDYADSVKGRFTISRDNSKNTLYLQMNSLRAEDTAVYYCAKEAAATISLMGPYGMDVWGQGTTVTVSS
chain 2: QSALTQPRSVSGSPGQSVTISCTGTSSDIGAYKSVSWYQQHPGKAPKLMIYDVTKRPSGVPDRFSGSRSGNTASLTISGLQTEDEADYYCCSYAGSYTYLFATGTKVTVL
B6: BD-619 (protein)
chain 1: EVQLVESGGGLIQPGGSLRLSCAASGITVSSNYMSWVRQAPGKGLEWVSVIYSGGSTFYSDSVKGRFTISRDNSKNTLYLQMNSLRAEDTAVYYCARERGGRFDYWGQGTLVTVSS
chain 2: not shown
B7: BD-864 (protein)
chain 1: QVQLVESGGGVVQPGRSLRLSCVASGFPFSKYTMHWVRQAPGKGLEWVTVISKPGGDEYYADSVKGRFSISRDNSKNMLDLQMNSLRPEDTAIYYCVREGRIAALGTAQSLWEPHDAFDVWGPGTMVTVSS
chain 2: QSALTQPRSVSGSPGQSVTISCTGTNSDIGNYNYISWYQQRPGKAPKLMIYDVSERPSGVPDRFSGSKSGNTASLTISGLQAEDESDYYCCSYAGTSLVWVFGGGTKLTVL
B8: BD-849 (protein)
chain 1: QVQLQESGPGLVKPSETLSLTCTVSGGSISSYYWTWVRQSPGKGLEWIGYISYTGSTNYNPSLKGRVTMSIDTSENQVSLRLSSVTAADTAVYYCASDFWSDYAGVYYYYGMDVWGQGTTVTVSS
chain 2: DIQMTQSPSSVSASVGDRVTITCRASQDIAGWLAWYQQKPGKAPKLLVYAATTLQSGVPARFSGSGSGTDFTLTISSLQPEDFATYYCQQANSFPRTFGQGTKVDFK
B9: BD-843 (protein)
chain 1: EVQLVESGGGLVQPGGSLRLSCAASGFTFSSYDMHWVRQASGKGLEWVSAIGTSGDTWYSDSVKGRFTISRENAKNSLSLQMNSLRAGDTAVYYCARVDYDFLTGRSYWFFDLWGRGTLVTVSS
chain 2: DIQVTQSPSSLSASVGDRVTITCRASQTITRYLNWYQQKPGKAPKLLIYAASSLQSGVPSRFSGSGSGTDFTLTISSLQPEDFATYYCQQSYSAPPFTFGPGTKVDIK
B10: BD55-659 (protein)
chain 1: EVQLVESGGGLVKPGGSLRLSCAASGFTFSRYSMNWVRQAPGKGLEWVSSISSSSSYIYYADSVKGRFTISRDNAKNSLYLQMNSLRAEDTAVYYCARVASVDYYDRSGHYTTDYDYGMDVWGQGTTVTVSS
chain 2: QSVLTQPPSVSGAPGQRVTISCTGSSSNIGAGYDVHWYQQLPGTAPKLLIYGNSNRPSGVPDRFSGSKSGTSASLAITGLQAEDEADYYCQSYDSSLSGYVFGTGTKVTVL
B11: BD55-616 (protein)
chain 1: QVQLVQSGAEVKKPGASVKVSCKASGYSFTSYYIHWVRQAPGQGLEWMGTINPSGGSKNYAQKFQGRVTMTRDTSTTTVYMELSSLRSEDTAVYYCARGHSDILTGYYIFGGYFDYWGQGTLVTVSS
chain 2: EIVMTQSPATLSVSPGERATLSCRASQSVSSNLAWYQQKPGQAPRLLIYGASTRATGIPARFSGSGSDTEFTLTISSLQSEDFAVYYCQQYNNWPPGYTFGQGTKLEIK
B12: BD55-199 (protein)
chain 1: QITLTESGPALVKPTQTLTLTCSFSGFSLRSTGVGVGWIRQPPGKALEWLALIYWDDDKRYRPSLKSRLTITKDTSKNQVVLTMTNMDPVDTATYYCAHTRARSYYDVLTGYETYYHYYMDVWGKGTTVAVSS
chain 2: QSVLTQPPSVSAAPGQRVTISCSGNSSNIGNNYVSWYQQHPGTAPKLLIYDNDKRPSGIPDRFSGSKSGTSATLGITGLQATDEADYYCATWDDSLRGVFGGGTRLTVL
B13: BD-836 (protein)
chain 1: QVQLVQSGPEVKKPGTSVRVSCKASGFTFSTSAVQWVRQARGQRLEWIGWIAVGSGKTDYLQKFQERVTMTRDESTNTAYMQLSSLRSEDTAVYYCAAPHCSGGTCYDGFDIWGQGTLVTVSS
chain 2: EIVLTQSPGTLSLSPGERATLSCRASQSVRSGYFAWYQQRPGRAPRLLIYGASSRATAIPDRFSGSGSGTDFTLTINRLEPEDFAVYYCQQYGTSPWTFGQGTKVEIK

target: SARS-CoV-2 Omicron BA.1 spike pseudovirus; experiment: pseudovirus neutralization IC50; higher = weaker neutralization
Protocol: (§1)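 Single-round VSV luciferase pseudovirus mixed with antibody dilutions for 1 h and put on Huh-7 cells for about a day; IC50 from the dose curve.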

Row | Binder | pseudovirus neutralization IC50 [µg/mL]
1 | B1 | 0.0289
2 | B2 | > 10
3 | B3 | > 10
4 | B4 | > 10
5 | B5 | 0.19
6 | B6 | > 10
7 | B7 | 0.784
8 | B8 | > 10
9 | B9 | > 10
10 | B10 | 0.589
11 | B11 | 0.00812
12 | B12 | > 10
13 | B13 | 0.0383

target: SARS-CoV-2 Omicron BA.2 spike pseudovirus; experiment: as above
Protocol: as §1

Row | Binder | pseudovirus neutralization IC50 [µg/mL]
14 | B1 | 0.0169
15 | B2 | > 10
16 | B3 | > 10
17 | B4 | > 10
18 | B5 | 0.348
19 | B6 | > 10
20 | B7 | 0.00312
21 | B8 | > 10
22 | B9 | > 10
23 | B10 | > 10
24 | B11 | 0.00979
25 | B12 | > 10
26 | B13 | 0.0729

target: SARS-CoV-2 Omicron BA.2.75 spike pseudovirus; experiment: as above
Protocol: as §1

Row | Binder | pseudovirus neutralization IC50 [µg/mL]
27 | B1 | 0.032
28 | B2 | > 10
29 | B3 | > 10
30 | B4 | > 10
31 | B5 | 0.214
32 | B6 | > 10
33 | B7 | 0.111
34 | B8 | > 10
35 | B9 | > 10
36 | B10 | > 10
37 | B11 | 0.00584
38 | B12 | > 10
39 | B13 | 0.00143

target: SARS-CoV-2 Omicron BA.5 spike pseudovirus; experiment: as above
Protocol: as §1

Row | Binder | pseudovirus neutralization IC50 [µg/mL]
40 | B1 | 0.0146
41 | B2 | > 10
42 | B3 | > 10
43 | B4 | > 10
44 | B5 | 0.411
45 | B6 | > 10
46 | B7 | 0.0857
47 | B8 | > 10
48 | B9 | > 10
49 | B10 | > 10
50 | B11 | > 10
51 | B12 | > 10
52 | B13 | 5.13

target: SARS-CoV-2 Omicron BQ.1.1 spike pseudovirus; experiment: as above
Protocol: as §1

Row | Binder | pseudovirus neutralization IC50 [µg/mL]
53 | B1 | 8.16
54 | B2 | > 10
55 | B3 | > 10
56 | B4 | > 10
57 | B5 | > 10
58 | B6 | > 10
59 | B7 | > 10
60 | B8 | > 10
61 | B9 | > 10
62 | B10 | > 10
63 | B11 | > 10
64 | B12 | > 10
65 | B13 | > 10

target: SARS-CoV-2 Omicron XBB spike pseudovirus; experiment: as above
Protocol: as §1

Row | Binder | pseudovirus neutralization IC50 [µg/mL]
66 | B1 | > 10
67 | B2 | > 10
68 | B3 | > 10
69 | B4 | > 10
70 | B5 | > 10
71 | B6 | > 10
72 | B7 | > 10
73 | B8 | > 10
74 | B9 | > 10
75 | B10 | > 10
76 | B11 | 0.747
77 | B12 | > 10
78 | B13 | > 10

target: SARS-CoV-2 early D614G spike pseudovirus; experiment: as above
Protocol: as §1

Row | Binder | pseudovirus neutralization IC50 [µg/mL]
79 | B1 | 0.012
80 | B2 | > 10
81 | B3 | > 10
82 | B4 | 0.009
83 | B5 | 0.002
84 | B6 | 0.12
85 | B7 | 0.016
86 | B8 | > 10
87 | B9 | 3.84
88 | B10 | 0.0731
89 | B11 | 0.00686
90 | B12 | > 10
91 | B13 | 0.001
